Results of unrelated studies side by side (data: NIAID ChemDB).

Common to all: growth or infection tests; species: Cytomegalovirus; read by: cytopathic effect; read-out: EC50

An empty or dashed field is not shown. ECn: concentration that inhibits the pathogen or its effect by n%. Lines come from different laboratories, so protocols vary.

compound | cell line | strain | result
OCCOCn1c(CCc2ccccn2)nc2cc(Cl)c(Cl)cc21 | HEL |  | >100 µg/mL
Nc1ncnc2c1ncn2C[C@@H](CO)OCP(=O)(O)O | HEL | AD169 | 1 µg/mL
OC[C@H]1O[C@@H](c2cc(C(O)CBr)c(F)cc2F)C[C@@H]1O | HEL | DAVIS | >20 µg/mL
Nc1ncnc2c1ncn2C[C@H]1COP(=O)(O)CO1 | HEL | AD169 | 0.7 µg/mL
Nc1nc(N)c2ncn(C[C@@H](CO)OCP(=O)(O)O)c2n1 | HEL | AD169 | 7.8 µM
Nc1ncnc2c1ncn2C[C@@H](CO)OCP(=O)(O)O | HEL | DAVIS | 0.3 µg/mL
COc1cc(CS(=O)c2cccc[n+]2[O-])cc(OC)c1OC | HEL |  | >50 µg/mL
C#C[C@H](O)C1=C[C@@H](n2cnc3c(N)ncnc32)[C@H](O)[C@@H]1O | HEL | DAVIS | >50 µg/mL
Nc1nc2c(ncn2COC(CO)CO)c(=O)[nH]1 | HEL | AD169 | 4 µg/mL
OCCOCn1c(SCc2ccccn2)nc2cc(Cl)c(Cl)cc21 | HEL |  | >50 µg/mL
COC(=O)CC(SCCO)n1cc(C)c(=O)[nH]c1=O | HFF |  | >200 µM
Nc1nc2c(ccn2[C@H]2CO[C@@H](CO)C2)c(=O)[nH]1 | HEL | AD169 | >40 µg/mL
Nc1nc(N)c2ncn(C[C@H](CO)OCP(=O)(O)O)c2n1 | HEL | AD169 | 151 µM
Cc1cn([C@H]2C/C(=N\O)[C@@H](CO)O2)c(=O)[nH]c1=O | HEL | DAVIS | >200 µg/mL
OC[C@H]1O[C@@H](n2c(CCc3ccccn3)nc3ccccc32)[C@H](O)[C@@H]1O | HEL |  | >100 µg/mL
O=S(=O)(Cc1ccccc1I)c1cccc[n+]1[O-] | HEL |  | >20 µg/mL
Nc1nc2c(ncn2COCCO)c(=O)[nH]1 | HEL | DAVIS | 20 µg/mL
CC[C@H](O)C1=C[C@@H](n2cnc3c(N)ncnc32)[C@H](O)[C@@H]1O | HEL | AD169 | >50 µg/mL
N#Cc1ccc(CS(=O)(=O)c2cccc[n+]2[O-])cc1 | HEL |  | >20 µg/mL
CC1(C)[C@@H](CO)CC[C@@]1(C)Cn1nnc2c(Cl)ncnc21 | HEL | DAVIS | >50 µg/mL
C[C@@]1(O)[C@@H](CO)O[C@@H](n2cnc3c(N)ncnc32)[C@@H]1O | VERO | DAVIS | >5 µg/mL
Cc1cc[n+]([O-])c(S(=O)(=O)Cc2ccc(Cl)cc2)c1 | HEL |  | >5 µg/mL
Nc1nc(Cl)c2ccn([C@H]3CO[C@@H](CO)C3)c2n1 | HEL | AD169 | >10 µg/mL
c1ccc(CSc2ccccn2)cc1 | HEL |  | >50 µg/mL
CCCCCCCn1cc2cc(CCCCCC)oc2nc1=O | HEL | AD169 | 20 µM
OCCOCn1c(CCc2ccccn2)nc2ccccc21 | HEL |  | >100 µg/mL
Cc1ccc[n+]([O-])c1SC(C)c1ccccc1 | HEL |  | >50 µg/mL
CCCCCCCCCCc1nccn(COCCO)c1=O | MRC-5 |  | >100 µM
CC1(C)[C@@H](CO)CC[C@@]1(C)Cn1cnc2c(N)ncnc21 | HEL | AD169 | >50 µg/mL
Nc1ccn(C[C@@H](CO)OCP(=O)(O)O)c(=O)n1 | HEL | AD169 | 0.2 µg/mL
CCCCCCCCCCc1nccn(C(CO)OC(CO)CO)c1=O | MRC-5 |  | 50 µM
Nc1nc(=O)n([C@@H]2O[C@H](CO)[C@@H](O)[C@@H]2F)cc1I | HEL | AD169 | 7 µg/mL
N#C/C(=C/c1ccc(Cl)cc1Cl)S(=O)(=O)c1cccc[n+]1[O-] | HEL |  | >5 µg/mL
CC1(C)[C@@H](CO)CC[C@@]1(C)Cn1cc(I)c(=O)[nH]c1=O | HEL | AD169 | >50 µg/mL
CC(C)CS[C@H]1C[C@@H](n2cnc3c(N)ncnc32)[C@H](O)[C@@H]1O | HEL | DAVIS | >200 µg/mL
Nc1nc2c(ncn2COCCO)c(=O)[nH]1 | HEL | AD169 | 70 µg/mL
Cc1nc([N+](=O)[O-])c(N2CCCC2)n1Cc1ccc(Cl)cc1 | HEL | DAVIS | 2.3 µg/mL
COC(=O)C[C@@H](SCCO)n1cnc2c(Cl)nc(N)nc21 | HFF |  | 179 µM
Nc1nc2c(ncn2CC(CO)OCP(=O)(O)O)c(=O)[nH]1 | HEL | DAVIS | 1 µg/mL
Cc1cn(C(CCO)SCCO)c(=O)[nH]c1=O | HFF |  | >200 µM
Nc1ncnc2c1ncn2[C@@H]1O[C@H](CO)[C@](O)(C(F)(F)F)[C@H]1O | VERO | AD169 | >50 µg/mL
CCCCCCc1cc2cnc(OC)nc2o1 | HEL | DAVIS | 4.7 µM
Cc1ccc(C)c(CSc2ccc(Cl)c[n+]2[O-])c1 | HEL |  | >50 µg/mL
Nc1nc2c(ncn2C[C@H](CF)OCP(=O)(O)O)c(=O)[nH]1 | HEL | AD169 | >300 µM
Cc1ccccc1C(Sc1cccc[n+]1[O-])C(N)=O | HEL |  | >50 µg/mL
C=C[C@@H](O)C1=C[C@@H](n2cnc3c(N)ncnc32)[C@H](O)[C@@H]1O | HEL | DAVIS | >50 µg/mL
Cc1ccc(C)c(CS(=O)c2cccc[n+]2[O-])c1 | HEL |  | 28 µg/mL
CCCCCCc1cc2cn(CCCC)c(=O)nc2o1 | HEL | AD169 | 19 µM
Cc1ccc(C)c(CS(=O)(=O)c2ncccc2O)c1 | HEL |  | >50 µg/mL
Nc1ncc2ncn(C[C@@H](CF)OCP(=O)(O)O)c2n1 | HEL | AD169 | >300 µM
O=C(O)c1ccc(CS(=O)(=O)c2cccc[n+]2[O-])cc1 | HEL |  | >50 µg/mL
Nc1nc(F)nc2c1ncn2[C@@H]1C=C(CO)[C@@H](O)[C@H]1O | HEL | AD169 | 1.5 µg/mL
COc1ccc(OC)c(CS(=O)(=O)c2cccc[n+]2[O-])c1 | HEL |  | >50 µg/mL
OC[C@H]1O[C@@H](c2cc(C(O)CI)c(F)cc2F)C[C@@H]1O | HEL | DAVIS | >200 µg/mL

3 of the rows above, restated:

| compound | cell line | strain | result |
|---|---|---|---|
| OC[C@H]1O[C@@H](n2c(CCc3ccccn3)nc3ccccc32)[C@H](O)[C@@H]1O | HEL |  | >100 µg/mL |
| CCCCCCc1cc2cnc(OC)nc2o1 | HEL | DAVIS | 4.7 µM |
| Nc1nc(N)c2ncn(C[C@@H](CO)OCP(=O)(O)O)c2n1 | HEL | AD169 | 7.8 µM |